A mixed list of measured activities; the numbers were collected in NIAID ChemDB.

Shared fields: host cell toxicity; cells: CEM; method: MTT; endpoint: CC50

Conditions beyond the fields shown may differ between rows. CCn: concentration that lowers growth or viability of the cells by n%.

SMILES	result
Nc1nc2c(ncn2[C@H]2C[C@H](O)[C@@H](CO)O2)c(=O)o1	>500 µg/mL
Cc1cc(NCc2cccc3ccccc23)cc(=O)o1	175 µM
O=C(NCc1ccc(O)c(O)c1O)c1ccc2ccc(C(=O)O)c(O)c2n1	>100 µM
c1nc[nH]n1	>100 µg/mL
Nc1ncnc2c1ncn2CCOCP(=O)(O)O	40.5 µM
O=C(NNc1ccccc1)c1ccc2ccc(C(=O)O)c(O)c2n1	>100 µM
OCc1ccccc1B(O)O	148 µM
O=C(NCc1cc(O)cc(O)c1)c1ccc2ccc(C(=O)O)c(O)c2n1	>100 µM
Cc1cc(NCc2ccccc2)c(C(=O)C(Cl)Cl)c(=O)o1	4.9 µM
Cc1cn([C@H]2C[C@H](N=C(N)n3cncn3)[C@@H](CO)O2)c(=O)[nH]c1=O	16 µg/mL
Cc1cc(NCc2cccc3ccccc23)c(C(=O)C(Cl)Cl)c(=O)o1	5.4 µM
Nc1nc2c(ncn2[C@@H]2C[C@H](CO)[C@@H](O)[C@H]2O)c(=O)o1	>500 µg/mL
O=Cc1ccccc1B(O)O	91 µM
Cc1cn([C@H]2C[C@H](Nc3nc(N)nn3C)[C@@H](CO)O2)c(=O)[nH]c1=O	>100 µg/mL
Cc1cc(NCCc2cccc3ccccc23)cc(=O)o1	76 µM
CCN(CC)C(=O)c1ccc(B(O)O)cc1	>250 µM
Nc1nc2c(ncn2[C@H]2CC[C@@H](CO)C2)c(=O)o1	>500 µg/mL
Nc1nc2c(ncn2[C@@H]2OC[C@](CO)(CCP(=O)(O)O)[C@@H]2F)c(=O)[nH]1	>100 µM
COc1ccc(B(O)O)cc1C=O	24 µM
CCc1c(S(=O)(=O)Cc2cccc3ccccc23)cc(C)oc1=O	68 µM
OB(O)c1ccc(F)cc1	>250 µM
Cc1cc(SCc2cccc3ccccc23)cc(=O)o1	16 µM
O=C(NCc1ccc(O)c(O)c1)Nc1ccc2ccc(C(=O)O)c(O)c2n1	>100 µM
OB(O)c1ccc(Cl)cc1	>250 µM

Again, the opening 2 rows:

Nc1nc2c(ncn2[C@H]2C[C@H](O)[C@@H](CO)O2)c(=O)o1 ; result: >500 µg/mL
Cc1cc(NCc2cccc3ccccc23)cc(=O)o1 ; result: 175 µM